Measurements published in patent US7282599B2, “Dithiocarbamate antiviral agents and methods of using same” (Avir Green Hills Biotechnology Research Devlopment Trade AG, priority 2001, dated 2007).

System: influenza virus A/PR8/34
Settings: vero cells, m.o.i. 0.01, 600 μM PDTC, supernatants after 48 and 72 hours

S=C(S)N1CCCC1 [PDTC, pyrrolidine dithiocarbamate]
reduction of virus titer compared with the control sample: more than 2 log steps
